Construct, isoform or probe ends are uncertain for at least one entry. Weaker means in comparison with the reference protein, sequence or condition of that experiment. Tags and fusion partners may be left off the protein sequences shown.

This note sets out measurements from article PMC12421817, “c-di-GMP regulates bacterial NAD biosynthesis via targeting the transcriptional repressor NadR” (mBio, 2025).

The target in the series is T1, NadR (Salmonella enterica serovar Typhimurium) (UniProt P24518).
T1 sequence (looked up): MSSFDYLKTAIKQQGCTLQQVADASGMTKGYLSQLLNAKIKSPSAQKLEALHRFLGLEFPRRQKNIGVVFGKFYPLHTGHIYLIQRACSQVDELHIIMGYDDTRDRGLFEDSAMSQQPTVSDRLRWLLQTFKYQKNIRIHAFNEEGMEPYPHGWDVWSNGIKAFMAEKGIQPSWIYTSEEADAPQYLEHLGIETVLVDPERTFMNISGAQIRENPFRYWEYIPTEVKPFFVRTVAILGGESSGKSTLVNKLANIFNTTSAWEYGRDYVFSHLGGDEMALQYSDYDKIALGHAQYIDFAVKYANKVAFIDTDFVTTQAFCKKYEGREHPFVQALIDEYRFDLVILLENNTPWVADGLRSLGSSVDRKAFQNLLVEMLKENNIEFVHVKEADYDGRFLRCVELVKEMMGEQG
The experiment in a line: EMSA. The settings on record: EMSA: 50 ng DNA, 20 mM Tris pH 7.5, 100 mM NaCl, 10% glycerol, 4 mM MgCl2, 1% NP-40, 1 mM DTT, 25 uL, 20 min room temperature, 6% native PAGE, 0.5x TBE, SYBR Safe, recombinant protein, residues 1-410, protein details: N-terminal His6 (pET28a), probe letters rebuilt from the primers and the genome. In general terms: A gel shift assay detects complexes by their altered migration in electrophoresis.

In the case of “GCTCATCGTGGCTTCTCGTTTTACTGACTTAACGAAACAACCGAATGAAAGCGTAATAAACGCCACAATCGGTTAATTTGTTTTATATGCTAAACAAGATAGCTGATTCAATAAGGAAAGTCACAATAATTACGTAGCCCCGTATCTGATGGCGGCGTAACGTCTTATCTGGCCTACGTGAGCGGTGCCGTCTGTAGGCCTGAT (double strand) [nadA-pnuC promoter]”, the binding result runs as follows: (ATP + NAD, increasing c-di-GMP) “binds more weakly”; (ATP) “binds more weakly”.

With “GGTTCTTGTTTAATTTACTAAACATGGTTGCGGCAGATTAGCACTATATGGCGCTAAAAAGCACGTTATGATTTCGCTGGTGTTGTGCTTATTAAACATAAAATAAAAATACGGCGAGAGATAAACGGCAAAAAATATTTTATAGGGCAGGGTGTTAGCGTCGGATTTTGTAGTGAAATAAAGATGCTGTTAGGTTACTC (double strand) [nadB promoter]”, the binding result runs as follows: (ATP + NAD, increasing c-di-GMP) “binds more weakly”; (ATP) “binds more weakly”.
